Consider three sequences from patent US6063612A, “Antiviral reagents based on RNA-binding proteins” (priority 1991, dated 2000).

Data set [1] addresses TAT24C-phen (HIV-1) (UniProt P69698). Description: EMSA. Conditions: 200 ng, synthetic protein, label: 32P. (In general: In EMSA bound probe runs differently from free probe, usually more slowly.)
The target in data set [2] is TAT24C (HIV-1) (UniProt P69698). Description: EMSA. The settings on record: 200 ng peptide, 70 mM NaCl, synthetic protein, label: 32P.

As for GCAGAUCUGAGCCUGGGAGCUCUCUGC [deltaTAR], the binding result in data set [1] (70 mM NaCl, 25 C, variant of HIV-1 TAR) is “binds”.

With “GGUCUCUCUGGUUAGACCAGAUCUGAGCCUGGGAGCUCUCUGGCUAACUAGAGAACCC [HIV-1 TAR]”, the binding result in data set [2] (0.2 mM EDTA, 10 mM Tris pH 7.5, 25 C) is “binds”; in data set [1] (shift virtually identical to unmodified peptide) it was “binds”.

“GGGAGGCUGGCAGAUUGAGCCCUGGGAGGUUCUCUCCAGCCUAGCAGGUAGAGCCUGGGUGUUCCCUGCUAGCUCCC [HIV-2 TAR]”: the binding result in data set [2] (25 C) is “binds”; in data set [1] (70 mM NaCl, 25 C) it was “binds”.
